# PubChem BioAssay AID624099 | ICCB-Longwood, 2012
# Aim: 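Host factors E2 relies on to silence an HPV18 LCR reporter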 (primary screen)
# Cell system: human C33A cervical carcinoma cells (HPV-negative) stably expressing BPV1 E2 and an HPV18 LCR luciferase reporter
# Reagent: siRNA pool against human genes, 40 nM
# Timing: 72 h
# Detection: 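HPV18 LCR reporter light per well, converted to plate-wise z-scores that exclude control wells, and averaged over triplicate plates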
# Scale: mean z-score and z-score: higher = stronger reporter signal, weaker E2 silencing
# Active means: 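Mean z ≥ 2 together with z ≥ 2 in two or more of the three replicates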
# This is one part, drawn at random, of about 21,000 reagents. 497 of all reagents (2.4%) count as active. 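Higher z means weaker E2 silencing; only reporter increases were scored, and knock-downs that hurt cell survival may mask genuine repressor factors.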 The numbers tell different reagents against one gene apart. Reagent sequences are not shown.
gene,reagent,mean z-score,"z-score, replicate A","z-score, replicate B","z-score, replicate C",call
FLJ45300 (retired record),1,-0.83,-0.81,-0.74,-0.95,inactive
USP6 (ubiquitin specific peptidase 6),1,-0.65,-0.61,-0.67,-0.67,inactive
LOC387943 (retired record),1,-1.24,-1.36,-1.13,-1.21,inactive
MED30 (mediator complex subunit 30),1,-1.29,-1.47,-1.59,-0.82,inactive
TINCR (TINCR ubiquitin domain containing),1,1.11,0.8,1.23,1.31,inactive
DNMT3L (DNA methyltransferase 3 like),1,0.29,0,0.43,0.42,inactive
GPHN (gephyrin),1,-0.62,-0.9,-0.38,-0.57,inactive
LOC402506 (retired record),1,0.59,0.76,0.49,0.52,inactive
CCL2 (C-C motif chemokine ligand 2),1,-0.39,-0.53,-0.68,0.05,inactive
GBA3 (glucosylceramidase beta 3 (gene/pseudogene)),1,0.06,-0.12,0.49,-0.2,inactive
LSM5,1,-1.48,-1.89,-1.19,-1.36,inactive
"RAB1A (RAB1A, member RAS oncogene family)",1,1.73,2,1.62,1.56,inactive
PWWP3B (PWWP domain containing 3B),1,-0.89,-0.9,-1.01,-0.77,inactive
PKNOX1 (PBX/knotted 1 homeobox 1),1,0.41,0.52,0.4,0.31,inactive
OSTF1 (osteoclast stimulating factor 1),1,0.06,0.1,-0.22,0.31,inactive
BCKDK (branched chain keto acid dehydrogenase kinase),1,0.11,0.01,0.09,0.21,inactive
NEIL2 (nei like DNA glycosylase 2),1,-0.59,-0.82,-0.49,-0.48,inactive
GUCY1A2 (guanylate cyclase 1 soluble subunit alpha 2),1,1.85,1.34,1.89,2.31,inactive
RIBC1 (RIB43A domain with coiled-coils 1),1,-0.69,-1.04,-0.66,-0.36,inactive
GPM6B (glycoprotein M6B),1,0.05,0.19,-0.21,0.16,inactive

Part of the list above, reduced to “mean z-score”:
MED30 (mediator complex subunit 30): -1.29
TINCR (TINCR ubiquitin domain containing): 1.11
DNMT3L (DNA methyltransferase 3 like): 0.29
GPHN (gephyrin): -0.62
LOC402506 (retired record): 0.59

Continued:
gene,reagent,mean z-score,"z-score, replicate A","z-score, replicate B","z-score, replicate C",call
LOC388169 (retired record),1,1.29,1.51,1.14,1.21,inactive
KDM4B (lysine demethylase 4B),1,-0.78,-0.62,-0.96,-0.74,inactive
EBLN2 (endogenous Bornavirus like nucleoprotein 2),1,1.67,1.76,1.67,1.57,inactive
RPS8P10 (ribosomal protein S8 pseudogene 10),1,-1.5,-1.46,-1.24,-1.79,inactive
BET1 (Bet1 golgi vesicular membrane trafficking protein),1,1.44,1.54,1.37,1.41,inactive
MAPK8IP3 (mitogen-activated protein kinase 8 interacting protein 3),1,-0.55,-1.06,-0.13,-0.45,inactive
TMEM203 (transmembrane protein 203),1,-0.52,-0.52,-0.3,-0.76,inactive
LRRC37A (leucine rich repeat containing 37A),1,0.32,0.07,0.33,0.58,inactive
LOC388454 (retired record),1,0.6,0.62,0.52,0.66,inactive
RCC1L (RCC1 like),1,0.4,0.52,0.54,0.15,inactive
RPL18P4 (ribosomal protein L18 pseudogene 4),1,2.09,1.88,2.06,2.33,active
RPL18P4 (ribosomal protein L18 pseudogene 4),2,1.38,1.08,1.79,1.27,inactive
CHMP4C (charged multivesicular body protein 4C),1,-0.93,-0.71,-1.24,-0.82,inactive
"RAB6C (RAB6C, member RAS oncogene family)",1,-1.04,-1.17,-1.08,-0.88,inactive
TRPV6,1,1.25,1.38,1.26,1.12,inactive
VANGL2 (VANGL planar cell polarity protein 2),1,-0.2,-0.18,-0.08,-0.33,inactive
NFS1 (NFS1 cysteine desulfurase),1,-0.48,-0.3,-0.58,-0.56,inactive
APPL2,1,0.8,1.16,0.76,0.47,inactive
SEZ6L2 (seizure related 6 homolog like 2),1,0.26,0.16,0.19,0.44,inactive
